A mixed list of measured activities; the numbers were collected in NIAID ChemDB.

All rows: growth or infection tests; organism: Herpes simplex virus 1

Neighbouring rows are from separate reports.

{"compound": "Nc1nc2c(ncn2COC(CO)CO)c(=O)[nH]1", "strain": "25784", "method": "plaque count", "endpoint": "EC50", "cells": "VERO H", "result": "0.45 µM"}
{"compound": "O=C(NCc1ccc(Cl)cc1)c1cn2c3c(cc(CN4CCOCC4)cc3c1=O)OC(c1cccnc1)C2", "strain": "L6178033", "method": "plaque count", "endpoint": "EC50", "cells": "HFF", "result": "4 µM"}
{"compound": "Cc1c(NC(=O)c2ccc3c(c2)OCO3)ccc2nc(NC(C)(C)C(=O)N(C)CCc3ccccn3)oc(=O)c12", "method": "plaque count", "endpoint": "EC90", "cells": "VERO", "result": "12.5 µM"}
{"compound": "CC1(C)[C@@H](CO)CC[C@@]1(C)Cn1nnc2c(=O)[nH]cnc21", "strain": "KOS", "method": "cytopathic effect", "endpoint": "EC50", "cells": "E6SM", "result": ">400 µg/mL"}
{"compound": "CC(=O)OCCOCN1C=C(C#N)C(N)=NS1(=O)=O", "strain": "VMW1837 (TK-)", "endpoint": "EC50", "cells": "E6SM", "result": ">400 µg/mL"}
{"compound": "OC[C@H]1O[C@@H](c2cc(Br)c(F)cc2F)C[C@@H]1O", "strain": "McIntyre", "method": "cytopathic effect", "endpoint": "EC50", "cells": "E6SM", "result": ">400 µg/mL"}
{"compound": "Nc1ccn(C[C@@H](CO)OCP(=O)(O)O)c(=O)n1", "strain": "SC16-TKDM21 (TK-)", "method": "plaque count", "endpoint": "EC50", "cells": "MRC-5", "result": "0.6 µM"}
{"compound": "Cc1c(NC(=O)c2cccs2)ccc2nc(NC(C)(C)C(=O)N(C)CCc3ccccn3)oc(=O)c12", "method": "plaque count", "endpoint": "EC90", "cells": "VERO", "result": ">12.5 µM"}
{"compound": "Cc1cc([C@@H]2C[C@H](O)[C@@H](CO)O2)c(F)cc1Cl", "strain": "McIntyre", "method": "cytopathic effect", "endpoint": "EC50", "cells": "E6SM", "result": ">400 µg/mL"}
{"compound": "O=C(NCc1ccc(Cl)cc1)c1c[nH]c2ccc(CCCO)cc2c1=O", "strain": "F", "method": "plaque count", "endpoint": "EC50", "result": "12 µM"}
{"compound": "Cc1c(NC(=O)OC(C)(C)C)ccc2nc(NCC(=O)N(C)CCc3ccccn3)oc(=O)c12", "method": "plaque count", "endpoint": "EC90", "cells": "VERO", "result": ">20 µM"}
{"compound": "Nc1nc2c(ncn2CCC(CO)CO)c(=O)[nH]1", "strain": "SC16", "method": "plaque count", "endpoint": "EC50", "cells": "MRC-5", "result": "0.8 µg/mL"}
{"compound": "COc1ccc(-c2[nH]c3nc4c(ncn4COCCO)c(=O)n3c2C)cc1", "strain": "KOS", "method": "cytopathic effect", "endpoint": "EC50", "cells": "HEL", "result": "0.384 µg/mL"}
{"compound": "Nc1nc2c(ncn2COCCO)c(=O)[nH]1", "strain": "E-115", "method": "plaque count", "endpoint": "EC50", "cells": "HFF", "result": "0.2 µg/mL"}
{"compound": "COc1cc(F)c([C@H]2C[C@H](O)[C@@H](CO)O2)cc1[N+](=O)[O-]", "strain": "VMW 1837", "method": "cytopathic effect", "endpoint": "EC50", "cells": "E6SM", "result": ">400 µg/mL"}
{"compound": "Cc1c(NC(=O)OC(C)(C)C)ccc2nc(N3CCC[C@H]3C(=O)NCc3cccnc3)oc(=O)c12", "method": "plaque count", "endpoint": "EC90", "cells": "VERO", "result": ">12.5 µM"}
{"compound": "O=c1c2ncn(COC(CO)CO)c2nc2[nH]c(-c3ccc(F)cc3)cn12", "strain": "F", "method": "cytopathic effect", "endpoint": "EC50", "cells": "HEL", "result": "0.384 µg/mL"}
{"compound": "Nc1nc2c(ncn2CCCC(CO)CO)c(=O)[nH]1", "strain": "C42", "method": "plaque count", "endpoint": "EC50", "cells": "HEL", "result": "0.3 µM"}
{"compound": "Nc1nc2c(ncn2COCCO)c(=O)[nH]1", "strain": "KOS", "method": "cytopathic effect", "endpoint": "EC50", "cells": "HSF", "result": "0.1 µg/mL"}
{"compound": "Cc1cc([C@H]2C[C@H](O)[C@@H](CO)O2)c(Cl)cc1F", "strain": "VMW 1837", "method": "cytopathic effect", "endpoint": "EC50", "cells": "E6SM", "result": ">400 µg/mL"}
{"compound": "CC(=O)OCCOCN1C=CC(=O)N(COCCO)S1(=O)=O", "strain": "F", "endpoint": "EC50", "cells": "E6SM", "result": ">400 µg/mL"}
{"compound": "Cc1cn([C@H]2C[C@H](O)[C@@H](CO)S2)c(=O)[nH]c1=O", "method": "cytopathic effect", "endpoint": "EC50", "cells": "HEL", "result": "0.008 µg/mL"}
{"compound": "Nc1nc2c(ncn2COCCO)c(=O)[nH]1", "strain": "V70843 (acyclovir-susceptible)", "method": "cytopathic effect", "endpoint": "EC50", "cells": "HFF", "result": "1 µg/mL"}
{"compound": "COc1cc(OC)cc(C(=O)Nc2ccc3nc(NC(C)(C)C(=O)N(C)CCc4ccccn4)oc(=O)c3c2C)c1", "method": "plaque count", "endpoint": "EC90", "cells": "VERO", "result": ">12.5 µM"}
{"compound": "CC1(C)[C@@H](CO)CC[C@@]1(C)Cn1ccc(=O)[nH]c1=O", "strain": "KOS", "method": "cytopathic effect", "endpoint": "EC50", "cells": "E6SM", "result": ">400 µg/mL"}
{"compound": "[N-]=[N+]=N[C@@H]1[C@@H](OP(=O)(O)OC[C@H]2O[C@@H](n3cnc4c(N)ncnc43)[C@H](OP(=O)(O)OCCOCn3cnc4c(=O)[nH]c(N)nc43)[C@H]2N=[N+]=[N-])[C@H](n2cnc3c(N)ncnc32)O[C@@H]1CO", "strain": "B2006 (TK-)", "method": "cytopathic effect", "endpoint": "EC50", "cells": "PRK", "result": "300 µg/mL"}
{"compound": "Cn1cc(C(=O)NCc2ccc(Cl)cc2)c(=O)c2cc(CN3CCOCC3)ccc21", "strain": "DM2.1 (ACV-resistant)", "method": "plaque count", "endpoint": "EC50", "cells": "HFF", "result": "1.9 µM"}
{"compound": "Cc1c(NC(=O)OC(C)(C)C)ccc2nc(N3CCCC[C@H]3C(=O)NCc3ccncc3)oc(=O)c12", "method": "plaque count", "endpoint": "EC90", "cells": "VERO", "result": ">12.5 µM"}
{"compound": "CCOC(=O)C1=CN(COCCOC(C)=O)S(=O)(=O)N=C1N", "strain": "KOS", "endpoint": "EC50", "cells": "E6SM", "result": ">400 µg/mL"}
{"compound": "O=c1[nH]c(=O)n([C@H]2C[C@H](O)[C@@H](CO)O2)cc1/C=C/Br", "strain": "KOS", "method": "cytopathic effect", "endpoint": "EC50", "cells": "BALB/3T3", "result": "0.007 µg/mL"}
{"compound": "O=c1c2ncn(COCCO)c2nc2[nH]c(-c3ccccc3)c(Cc3ccccc3)n12", "strain": "McIntyre", "method": "cytopathic effect", "endpoint": "EC50", "cells": "HEL", "result": ">16 µg/mL"}
{"compound": "Cc1cc([C@@H]2C[C@H](O)[C@@H](CO)O2)c(Cl)cc1F", "strain": "VMW 1837", "method": "cytopathic effect", "endpoint": "EC50", "cells": "E6SM", "result": ">400 µg/mL"}
{"compound": "O=c1c2ncn(COCCO)c2nc2[nH]c(-c3ccc(F)cc3)cn12", "strain": "TK-", "method": "cytopathic effect", "endpoint": "EC50", "cells": "HEL", "result": ">16 µg/mL"}
{"compound": "CC(=O)OCCOCN1C(=O)C=CN(COCCO)S1(=O)=O", "strain": "KOS", "endpoint": "EC50", "cells": "E6SM", "result": ">400 µg/mL"}
{"compound": "OC[C@H]1O[C@@H](c2cc(I)c(F)cc2F)C[C@@H]1O", "strain": "F", "method": "cytopathic effect", "endpoint": "EC50", "cells": "E6SM", "result": ">400 µg/mL"}
{"compound": "CC(=O)OCCOCN1C=CC(=O)NS1(=O)=O", "strain": "McIntyre", "endpoint": "EC50", "cells": "E6SM", "result": ">400 µg/mL"}
{"compound": "O=[N+]([O-])c1cc([C@H]2C[C@H](O)[C@@H](CO)O2)c(F)cc1F", "strain": "F", "method": "cytopathic effect", "endpoint": "EC50", "cells": "E6SM", "result": ">400 µg/mL"}
{"compound": "O=c1[nH]c(=O)n([C@H]2C[C@H](O)[C@@H](CO)O2)cc1I", "strain": "KOS", "method": "cytopathic effect", "endpoint": "EC50", "cells": "HSF", "result": "0.4 µg/mL"}
{"compound": "Nc1nc2c(ncn2C/C=C\\CO)c(=O)[nH]1", "strain": "SC16", "method": "plaque count", "endpoint": "EC50", "cells": "VERO", "result": "8.6 µM"}
{"compound": "O=c1[nH]c(=O)n([C@H]2C[C@H](O)[C@@H](CO)O2)cc1F", "strain": "B2006 (TK-)", "method": "cytopathic effect", "endpoint": "EC50", "cells": "PRK", "result": "0.2 µg/mL"}
{"compound": "Cc1c(NC(=O)c2scc(S(=O)(=O)C(C)C)c2Cl)ccc2nc(NC(C)(C)C(=O)N(C)CCc3ccccn3)oc(=O)c12", "method": "plaque count", "endpoint": "EC90", "cells": "VERO", "result": ">12.5 µM"}
{"compound": "CC1(C)[C@@H](CO)CC[C@@]1(C)Cn1cnc2c(=O)[nH]cnc21", "strain": "KOS", "method": "cytopathic effect", "endpoint": "EC50", "cells": "E6SM", "result": ">400 µg/mL"}

Repeating the first 4 entries:

compound,strain,method,endpoint,cells,result
Nc1nc2c(ncn2COC(CO)CO)c(=O)[nH]1,25784,plaque count,EC50,VERO H,0.45 µM
O=C(NCc1ccc(Cl)cc1)c1cn2c3c(cc(CN4CCOCC4)cc3c1=O)OC(c1cccnc1)C2,L6178033,plaque count,EC50,HFF,4 µM
Cc1c(NC(=O)c2ccc3c(c2)OCO3)ccc2nc(NC(C)(C)C(=O)N(C)CCc3ccccn3)oc(=O)c12,-,plaque count,EC90,VERO,12.5 µM
CC1(C)[C@@H](CO)CC[C@@]1(C)Cn1nnc2c(=O)[nH]cnc21,KOS,cytopathic effect,EC50,E6SM,>400 µg/mL

ECn is the concentration giving n% inhibition of infection, replication or growth. An empty or dashed field is not shown.